Pooled drug test results. Numbers come from NIAID ChemDB, via PubChem.

Shared fields: growth or infection tests; species: Aspergillus niger; method: agar diffusion; endpoint: zone

Zones are inhibition diameters on agar.

smiles,tested at,strain,value
CSC1=NC(c2ccccc2[N+](=O)[O-])C(C#N)=C(N)N1,100 µg/mL,MTCC 282,15 mm
Clc1ccc(NCc2cc3ccccc3nc2Cl)cc1Cl,200 µg/mL,MTCC 281,19.6 mm
CS(=O)(=O)c1nc(N)c(C#N)c(-c2ccc(O)cc2)n1,100 µg/mL,MTCC 282,20 mm
COc1ccc(/C=C(\C#N)c2ccccc2)cc1,100 µg,,0 mm
O=C1NC2(CO1)O/C(=C/c1ccc(Cl)cc1)C(=O)N2CCCNc1ccnc2cc(Cl)ccc12,400 µg/mL,,22 mm
CN(Cc1cc2ccccc2nc1Cl)c1cccc(Cl)c1,200 µg/mL,MTCC 281,15.21 mm
N#C/C(=C\c1ccc(Cl)cc1)c1ccccc1,100 µg,,0 mm
N=C1O/C(=C/c2ccc(Cl)cc2)C(=O)N1CCCNc1ccnc2cc(Cl)ccc12,200 µg/mL,,26 mm
CC(=O)Nc1nc(C)c(-c2n[nH]c(=S)n2N2C(=O)CSC2c2ccc(O)cc2)s1,100 µg/mL,,18 mm
CS(=O)(=O)C1=NC(c2cccc3cc4ccccc4cc23)C(C#N)=C(N)N1,25 µg/mL,MTCC 282,18 mm
O=C1CCCC2=C1C(c1ccc(C3C4=C(CCCC4=O)OC4=C3C(=O)CCC4)cc1)C1=C(CCCC1=O)O2,140 µg/disc,ATCC 10949,7 mm
O=C1NC2(CO1)O/C(=C/c1ccc([N+](=O)[O-])cc1)C(=O)N2CCCNc1ccnc2cc(Cl)ccc12,400 µg/mL,,51 mm
CC(=O)Nc1nc(C)c(-c2n[nH]c(=S)n2N2C(=O)CSC2c2ccccc2)s1,100 µg/mL,,19 mm
O=C(NN1C(=O)CSC1C1C(c2ccccc2)=Nc2ccc(Cl)cc21)N1c2ccccc2C=Cc2ccccc21,750 µg/mL,MTCC 281,13 mm
CSC1=NC(c2ccccc2Cl)C(C#N)=C(N)N1,100 µg/mL,MTCC 282,18 mm
Cc1ccc2c(c1)C(C=NNC(=O)N1c3ccccc3C=Cc3ccccc31)C(c1ccccc1)=N2,500 µg/mL,MTCC 281,12 mm
CN(Cc1cc2ccccc2nc1Cl)c1ccc(Cl)cc1,200 µg/mL,MTCC 281,17.08 mm
CC(=O)Nc1nc(C)c(-c2n[nH]c(=S)n2N2C(=O)CSC2c2ccc(C)cc2)s1,100 µg/mL,,20 mm
O=C1CC(c2ccccc2)CC2=C1C(c1cccc(C3C4=C(CC(c5ccccc5)CC4=O)OC4=C3C(=O)CC(c3ccccc3)C4)c1)C1=C(CC(c3ccccc3)CC1=O)O2,140 µg/disc,ATCC 10949,0 mm
CC(=O)Nc1nc(C)c(-c2n[nH]c(=S)n2N2C(=O)CSC2c2ccccc2O)s1,100 µg/mL,,14 mm
Fc1ccc(NCc2cc3ccccc3nc2Cl)cc1,200 µg/mL,MTCC 281,14.76 mm
O=C(NN1C(=O)CSC1C1C(c2ccccc2)=Nc2ccccc21)N1c2ccccc2C=Cc2ccccc21,750 µg/mL,MTCC 281,4 mm
N#C/C(=C\c1ccccc1[N+](=O)[O-])c1ccccc1,100 µg,,0 mm
Clc1ccc(NCc2cc3ccccc3nc2Cl)cc1,200 µg/mL,MTCC 281,15.86 mm
O=C1CCCC2=C1C(c1cccc(C3C4=C(CCCC4=O)OC4=C3C(=O)CCC4)c1)C1=C(CCCC1=O)O2,40 µg/disc,ATCC 10949,0 mm
COc1cc(C2SCC(=O)N2n2c(-c3sc(NC(C)=O)nc3C)n[nH]c2=S)cc(OC)c1OC,100 µg/mL,,17 mm
CC1(C)CCC2=C(C1=O)C(c1cccc(C3C4=C(CCC(C)(C)C4=O)OC4=C3C(=O)C(C)(C)CC4)c1)C1=C(CCC(C)(C)C1=O)O2,20 µg/mL,ATCC 10949,0 mm
N#C/C(=C\c1ccc([N+](=O)[O-])cc1)c1ccc([N+](=O)[O-])cc1,100 µg,,0 mm
CC1(C)CCC2=C(C1=O)C(c1ccc(C3C4=C(CCC(C)(C)C4=O)OC4=C3C(=O)C(C)(C)CC4)cc1)C1=C(CCC(C)(C)C1=O)O2,40 µg/disc,ATCC 10949,0 mm
COc1ccc(/C=C(\C#N)c2ccc([N+](=O)[O-])cc2)cc1,100 µg,,0 mm

A second listing of 2 rows from above:

smiles,tested at,strain,value
CC(=O)Nc1nc(C)c(-c2n[nH]c(=S)n2N2C(=O)CSC2c2ccccc2O)s1,100 µg/mL,,14 mm
CSC1=NC(c2ccccc2Cl)C(C#N)=C(N)N1,100 µg/mL,MTCC 282,18 mm

An empty or dashed field is not shown. Neighbouring rows are from separate reports.